Experimental data published in ChEMBL document CHEMBL1148707, “Inhibition of the bacterial heme oxygenases from Pseudomonas aeruginosa and Neisseria meningitidis: novel antimicrobial targets” (J Med Chem, 2007).
The source made the active and inactive calls. The rule behind the calls is not given here.

Tested on: Pseudomonas aeruginosa
Experiment: Growth inhibition of Pseudomonas aeruginosa MPA01 at <250 uM
Assay type: functional, organism-based
Procedure, shortened: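 MPA01 grown 8 h at 37 °C, then diluted to OD600 0.05 in iron-restricted succinate minimal medium pH 7.0 with heme as iron source. Compound added from DMSO at 10-1500 µM. Incubated 10 h at 37 °C with aeration in 96-well format, then OD600 read.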

Question: Which Activity does the source give for `NCc1ccc([N+](=O)[O-])cc1[N+](=O)[O-]` here?
Answer: The Activity was “inactive”.
